Measured values from several laboratories, pooled; numbers as filed in NIAID ChemDB.

All rows: target-level tests; organism: HIV-1; target: Integrase; endpoint: IC50

ICn: concentration for n% inhibition.

structure	setting	changes	read by	strain or isolate	result
Cc1ccc2c(c1)C(=O)c1ccccc1C2=O	-	-	disintegration	-	>40 µM
COC(=O)[C@@]1(O)C[C@@H](OC(=O)/C=C/c2ccc(O)c(O)c2)[C@H](O)[C@H](OC(=O)/C=C/c2cc(OC)c(O)c(OC)c2)C1	-	-	gel / radiometric	-	23.6 µM
O=S(=O)(O)c1ccc2c(N=Nc3cccc4ccccc34)c(O)c(S(=O)(=O)O)cc2c1	-	-	-	-	83.6 µM
CC(C)=C/C=C\[C@H](C)[C@H]1CC[C@]2(C)C[C@H]3[C@@H](C(=O)C[C@@]3(C)O)C(C=O)=C[C@@H]12	-	-	absorbance	-	19 µM
COc1cc([C@@H]2c3cc4c(cc3[C@@H](O[C@@H]3O[C@@H]5CO[C@@H](c6cccs6)O[C@H]5[C@H](O)[C@H]3O)[C@H]3COC(=O)[C@H]23)OCO4)cc(OC)c1O	-	-	3′ processing / substrate cleavage	-	>100 µM
CN(C)CCCNC(=O)c1cc(NC(=O)c2cc(NC(=O)c3cc(NC(=O)c4ccc(C(=O)Nc5cc(C(=O)Nc6cc(C(=O)Nc7cc(C(=O)NCCCN(C)C)n(C)c7)n(C)c6)n(C)c5)nc4)cn3C)cn2C)cn1C	-	-	disintegration	-	0.18 µM
CCCCCCCCCCCCCCCCCCCCCCC(=O)O[C@@H]1[C@@H](C)[C@@]2(O)[C@@H](C=C(COC(C)=O)C[C@]3(O)C(=O)C(C)=C[C@@H]23)[C@@H]2C(C)(C)[C@]12O	-	-	absorbance	-	>67.5 µM
Cc1ccc(S(=O)(=O)n2cc(/C(O)=C/C(=O)C(=O)O)c3cc(F)ccc32)cc1	-	G140S	strand transfer / fluorescence	-	6.7 µM
[N-]=[N+]=[N-].[Na+]	-	-	absorbance	-	<50 µg/mL
N#C/C(=C\c1ccc(O)c(O)c1)C(=O)NCCCCCCNC(=O)/C(C#N)=C/c1ccc(O)c(O)c1	-	-	3′ processing / substrate cleavage	-	1.35 µM
COc1ccc2c(c1O)CNCC2c1ccc(O)c(O)c1	-	-	strand transfer / radiometric	HXB2	9 µM
Cc1nc2c(-c3ccc(Cl)cc3)cccc2c(-c2ccc3c(c2)OCCO3)c1C(OC(C)(C)C)C(=O)O	-	-	strand transfer / fluorescence	-	0.08 µM
O=C1Cc2ccccc2C(=O)N1O	-	-	ELISA	-	6.32 µM
C[C@@H]1CCO[C@H]2Cn3cc(C(=O)NCc4ccc(F)cc4F)c(=O)c(O)c3CN12	-	-	-	-	0.033 µM
CC[C@@]1(O)C(=O)NCc2c1cc1n(c2=O)Cc2cc3ccccc3nc2-1	-	-	absorbance	-	>100 µM
COc1cc([C@H]2c3cc(O)c(OC)cc3C[C@H]3C(=O)OC[C@H]23)ccc1O	-	-	strand transfer / radiometric	HXB2	>35 µM
CC(C)=CCC[C@H](C)[C@@]1(O)CC[C@]2(C)C[C@H]3[C@H](C(=O)C[C@@]3(C)O)C(C=O)=C[C@H]21	-	-	absorbance	-	21.5 µM
CN(C)CCCNC(=O)c1cc(NC(=O)c2cc(NC(=O)c3cc(NC(=O)c4ccccc4C(=O)O)cn3C)cn2C)cn1C	-	-	disintegration	-	>100 µM
COc1cc(/C=C/c2ccc3ccc(C(=O)O)c(O)c3n2)cc(O)c1O	-	-	binding / fluorescence	-	2.2 µM
CCOC(=O)C(C(=O)OCC)c1cn(S(=O)(=O)c2ccc(C)cc2)c2ccc(NC(=O)c3cccc([N+](=O)[O-])c3)cc12	-	G140S	strand transfer / fluorescence	-	20.3 µM
COc1cc(C)cc2c1C(=O)c1c(cc(O)c(O)c1O)C2=O	-	-	absorbance	-	6 µM
O=C(C1=C(O)C(=O)N(c2nncs2)C1c1ccc(F)cc1)c1cccs1	-	-	-	-	>100 µM
N#C/C(=C\c1cc(O)c(O)c(Br)c1)C(=O)NCCCNC(=O)/C(C#N)=C/c1cc(O)c(O)c(Br)c1	-	-	3′ processing / substrate cleavage	-	0.8 µM
CCCCCCNC(=O)OCCCCCCNC(=O)OC1CCN(C(=O)Oc2ccc(Oc3ccccc3)cc2)CC1	-	-	ELISA / strand transfer	-	0.85 µM
CC(=O)OC1CC[C@@]2(C)C(CC[C@]3(C)C2CC=C2C4CC(C)(C)CC[C@]4(C(=O)O)CC[C@]23C)C1(C)C	-	-	strand transfer / absorbance	-	>100 µg/mL
O=C1/C(=C/c2cc(O)c(O)c(O)c2)CCC/C1=C\c1cc(O)c(O)c(O)c1	-	-	3′ processing	-	1.4 µM
Cc1cn([C@H]2C[C@H](N=[N+]=[N-])[C@@H](COP(=O)(O)O)O2)c(=O)[nH]c1=O	-	-	3′ processing / substrate cleavage	-	200 µM
O=C(NNC1=Nc2ccccc2C(c2ccccc2)=NC1)c1cnccn1	-	-	substrate cleavage	-	2 µM
N#C/C(=C\c1cc(O)c(O)c(O)c1)C(=O)NCCCCNC(=O)/C(C#N)=C/c1cc(O)c(O)c(O)c1	-	-	3′ processing / substrate cleavage	-	0.66 µM
Oc1cc2c(cc1O)C1c3ccc(O)c(O)c3OCC1(O)C2	-	-	strand transfer / radiometric	HXB2	0.5 µM
O=C(/C=C/c1ccc(O)c2c1[C@H](C(=O)O)[C@H](c1ccc(O)c(O)c1)O2)O[C@H](Cc1ccc(O)c(O)c1)C(=O)O	-	-	ELISA	-	5.25 µg/mL
O=C1/C(=C/c2ccc(O)c(O)c2)CCC/C1=C\c1ccc(O)c(O)c1	-	-	3′ processing	-	0.9 µM
C=C(CC[C@@H](C)[C@@]1(OC2O[C@H](CO)[C@@H](O)[C@H](O)[C@@H]2O)CC=C2C3=C(C[C@@H](O)[C@@]21C)[C@@]1(C)CC[C@H](O)C(C)(C)[C@@H]1CC3)C(C)C	-	-	absorbance	-	50 µM
CC[C@H](C)[C@@H]1NC(=O)[C@H]2CSC(=N2)[C@@H](Cc2ccccc2)NC(=O)[C@@H]2CCCN2C(=O)[C@@H]2CCCN2C(=O)C(C(C)C)NC1=O	-	-	absorbance	-	39 µM
CC[n+]1c(-c2ccccc2)c2cc(N)ccc2c2ccc(N)cc21	-	-	3′ processing / substrate cleavage	-	3 µM
O=C(O)C(=O)/C=C(\O)c1cn(Cc2cc(F)ccc2F)c2ccc(Br)cc12	-	G140S	strand transfer / fluorescence	-	9.2 µM
O=C1C=CC(=O)c2c(O)ccc(O)c21	-	-	3′ processing / substrate cleavage	-	5.73 µM
CN(C)CCCNC(=O)c1cc(NC(=O)c2cc(NC(=O)c3cc(NC(=O)c4cnccc4C(=O)O)cn3C)cn2C)cn1C	-	-	disintegration	-	>100 µM
CCN(CCO)CCCC(C)Nc1ccnc2cc(Cl)ccc12	-	-	3′ processing / substrate cleavage	-	>100 µM
COC(=O)[C@@H](Cc1ccc(O)c(O)c1)OC(=O)/C=C/c1ccc(O)c(O)c1/C=C/c1ccc(O)c(O)c1	-	-	ELISA	-	7.58 µg/mL
NCCCCNCCCN	-	-	3′ processing / substrate cleavage	-	>100 µM
CC1(C)OC(=O)/C(=C/C(=O)c2c[nH]c3ccc(Br)cc23)O1	-	Y143R	strand transfer / fluorescence	-	15.9 µM
NCCCC[C@H](N)C(=O)NC[C@H]1O[C@H](O[C@H]2[C@H](O)[C@@H](O)[C@H](N)C[C@@H]2N)[C@H](N)[C@@H](O)[C@@H]1O	-	-	ELISA	-	>100 µg/mL
Cc1ccc(S(=O)(=O)n2cc(C(C(=O)O)C(=O)O)c3cc(NC(=O)c4ccc(F)cc4)ccc32)cc1	-	Y143R	strand transfer / fluorescence	-	>25 µM
COc1c(O)ccc2c1-c1c3c(c(OC)c4ccnc(c14)C2=O)OCO3	-	-	-	-	21.1 µM
O=C(O)[C@@H](CS(=O)(=O)c1ccc([N+](=O)[O-])cc1)NC(=O)C1(c2ccc3ccccc3c2)CCN(Cc2ccc3ccccc3c2)CC1	pseudotyped	-	strand transfer / fluorescence	NL4-3	55.99 µM
CC(=O)NC1C(O[C@H]2CC[C@@]3(C)C(CC[C@]4(C)C3CC=C3C5CC(C)(C)CC[C@]5(C(=O)O)CC[C@]34C)C2(C)C)OC(CO)C(O)C1O	-	-	absorbance	-	18.32 µM
O=C1c2ccc3c(c2-c2c4c(cc5ccnc1c25)OCO4)OCO3	-	-	-	-	16.3 µM
O=C(NCc1nccs1)c1nc(-c2cccs2)[nH]c(=O)c1O	-	-	strand transfer / absorbance	-	0.085 µM
Cc1ccc(Cl)c(Cc2ccc3c(c2)c(=O)c(C(=O)O)cn3CCO)c1	-	-	ELISA	-	0.13 µM
O=C(O)[C@@H](CS(=O)(=O)c1ccc(C(F)(F)F)cc1)NC(=O)C1(c2ccc3ccccc3c2)CCN(Cc2ccc3ccccc3c2)CC1	pseudotyped	-	strand transfer / fluorescence	NL4-3	55.99 µM
Cc1ccc(S(=O)(=O)n2cc(C(C(=O)O)C(=O)O)c3cc(NC(=O)c4cccc(C)c4O)ccc32)cc1	-	-	strand transfer / fluorescence	-	25 µM
CN(C)CCCNC(=O)c1cc(NC(=O)c2cc(NC(=O)c3cc(NC(=O)c4ccnc(C(=O)Nc5cc(C(=O)Nc6cc(C(=O)Nc7cc(C(=O)NCCCN(C)C)n(C)c7)n(C)c6)n(C)c5)c4)cn3C)cn2C)cn1C	-	-	disintegration	-	3.7 µM
N#C/C(=C\c1ccc(O)c(O)c1)C(=O)NCCCCNC(=O)/C(C#N)=C/c1ccc(O)c(O)c1	-	-	3′ processing / substrate cleavage	-	5–10 µM
O=C1OC(c2ccccc2)/C(=C(\O)c2ccc(Cl)cc2)C1=O	-	-	-	-	0.9 µM
COc1ccc2c(c1O)-c1c(OC)c3c(c4c1[C@H](C2)N(C)CC4)OCO3	-	-	-	-	>100 µM
O=C(O)[C@H](Cc1ccccc1)NC(=O)C1(c2ccc(-c3ccccc3)cc2)CCN(Cc2ccc3ccccc3c2)CC1	pseudotyped	-	strand transfer / fluorescence	NL4-3	>500 µM
CC[C@@]1(O)C(=O)OCc2c1cc1n(c2=O)Cc2cc3ccccc3nc2-1	-	-	3′ processing / substrate cleavage	-	>100 µM
O=C1/C(=C/c2cc(O)c(O)c(O)c2)CN(Cc2ccccc2)C/C1=C\c1cc(O)c(O)c(O)c1	-	-	3′ processing	-	0.7 µM
CN(C)CCCNC(=O)c1cc(NC(=O)c2cc(NC(=O)c3cc(NC(=O)c4ncccc4C(=O)O)cn3C)cn2C)cn1C	-	-	disintegration	-	>100 µM
CN1C(=O)C(c2cc(Cl)c(O)c(Cl)c2)NC(=O)[C@@H]2NC(=O)C(c3cc(Cl)c(O)c(Cl)c3)NC(=O)[C@H](NC(=O)C(=O)c3cc(Cl)c(O)c(Cl)c3)Cc3c[nH]c4cc(ccc34)-c3cc2cc(c3O)Oc2ccc(cc2)CC1C(=O)NC(C(=O)O)c1ccc(O)cc1	-	-	absorbance	-	0.2 µM
COc1cc(O)c(C(=O)O)c(-c2cc(O)c(O)cc2C)c1	-	-	absorbance	-	19 µM
C=C(CC[C@@H](C)[C@H]1CC=C2C3=C([C@@H](O)[C@H](OC(C)=O)[C@@]21C)[C@@]1(C)C[C@@H](O)[C@H](OS(=O)(=O)O)C(C)(C)[C@@H]1CC3)C(C)C	-	-	absorbance	-	4 µM
O=C1c2cccc(O)c2C(=O)c2c(O)cccc21	-	-	disintegration	-	>40 µM
O[C@H](c1cc(C(F)(F)F)nc2c(C(F)(F)F)cccc12)[C@@H]1CCCCN1	-	-	3′ processing / substrate cleavage	-	>100 µM
CCOC(=O)C(C(=O)OCC)c1cn(S(=O)(=O)c2ccc(C)cc2)c2ccc(NC(=O)c3ccc(F)cc3Cl)cc12	-	Y143R	strand transfer / fluorescence	-	>25 µM
CCOC(=O)c1c(-c2ccccc2)nc(=O)n(Cc2ccc(Cc3cccc(/C(O)=C/C(=O)C(=O)O)c3)cc2)c1CC	-	-	3′ processing / radiometric	-	22.5 µM

Again, the opening 6 rows:

structure	setting	changes	read by	strain or isolate	result
Cc1ccc2c(c1)C(=O)c1ccccc1C2=O	-	-	disintegration	-	>40 µM
COC(=O)[C@@]1(O)C[C@@H](OC(=O)/C=C/c2ccc(O)c(O)c2)[C@H](O)[C@H](OC(=O)/C=C/c2cc(OC)c(O)c(OC)c2)C1	-	-	gel / radiometric	-	23.6 µM
O=S(=O)(O)c1ccc2c(N=Nc3cccc4ccccc34)c(O)c(S(=O)(=O)O)cc2c1	-	-	-	-	83.6 µM
CC(C)=C/C=C\[C@H](C)[C@H]1CC[C@]2(C)C[C@H]3[C@@H](C(=O)C[C@@]3(C)O)C(C=O)=C[C@@H]12	-	-	absorbance	-	19 µM
COc1cc([C@@H]2c3cc4c(cc3[C@@H](O[C@@H]3O[C@@H]5CO[C@@H](c6cccs6)O[C@H]5[C@H](O)[C@H]3O)[C@H]3COC(=O)[C@H]23)OCO4)cc(OC)c1O	-	-	3′ processing / substrate cleavage	-	>100 µM
CN(C)CCCNC(=O)c1cc(NC(=O)c2cc(NC(=O)c3cc(NC(=O)c4ccc(C(=O)Nc5cc(C(=O)Nc6cc(C(=O)Nc7cc(C(=O)NCCCN(C)C)n(C)c7)n(C)c6)n(C)c5)nc4)cn3C)cn2C)cn1C	-	-	disintegration	-	0.18 µM

a–b is a range or a potency band. Blank or dashed fields: not listed here. Conditions beyond the fields shown may differ between rows.